Assay results as given in the supplement of paper PMC3578754.
Fold change is the IC50 on the isolate divided by the IC50 on a reference virus; 1 = unchanged, higher = more resistant. Changes are given against the subtype B consensus. No active / inactive call. The values were gathered from many studies (numbered anew) with different assays, which the source does not name. Most viruses are clinical isolates; some are laboratory strains or clones with known resistance changes. Isolates with mixed residues are left out; stretches that were not sequenced show no change. Round top values that many isolates share are read here as limits; other very high values and 0.1 may be limits too. For some of these results: The protease changes I3V and N37S, insertions and deletions cannot be read from the source.

How the values were obtained:
delavirdine = compound: CC(C)Nc1cccnc1N1CCN(C(=O)c2cc3cc(NS(C)(=O)=O)ccc3[nH]2)CC1 [delavirdine]; experiment: fold change of IC50 against reference virus; higher = more resistant
Method: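 Cell-culture drug susceptibility tests of virus bearing the reverse transcriptase of each isolate, gathered from many studies.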

nelfinavir = compound: Cc1c(O)cccc1C(=O)N[C@@H](CSc1ccccc1)[C@H](O)CN1C[C@H]2CCCC[C@H]2C[C@H]1C(=O)NC(C)(C)C [nelfinavir]; experiment: fold change of IC50 against reference virus; higher = more resistant; Cell-culture drug susceptibility tests of virus bearing the protease of each isolate, gathered from many studies.
atazanavir = compound: COC(=O)N[C@H](C(=O)N[C@@H](Cc1ccccc1)[C@@H](O)CN(Cc1ccc(-c2ccccn2)cc1)NC(=O)[C@@H](NC(=O)OC)C(C)(C)C)C(C)(C)C [atazanavir]; experiment: as above
lopinavir = compound: Cc1cccc(C)c1OCC(=O)N[C@@H](Cc1ccccc1)[C@@H](O)C[C@H](Cc1ccccc1)NC(=O)[C@H](C(C)C)N1CCCNC1=O [lopinavir]; experiment: as above
saquinavir = compound: CC(C)(C)NC(=O)[C@@H]1C[C@@H]2CCCC[C@@H]2CN1C[C@@H](O)[C@H](Cc1ccccc1)NC(=O)[C@H](CC(N)=O)NC(=O)c1ccc2ccccc2n1 [saquinavir]; experiment: as above
indinavir = compound: CC(C)(C)NC(=O)[C@@H]1CN(Cc2cccnc2)CCN1C[C@@H](O)C[C@@H](Cc1ccccc1)C(=O)N[C@H]1c2ccccc2C[C@H]1O [indinavir]; experiment: as above
ritonavir = compound: CC(C)c1nc(CN(C)C(=O)N[C@H](C(=O)N[C@@H](Cc2ccccc2)C[C@H](O)[C@H](Cc2ccccc2)NC(=O)OCc2cncs2)C(C)C)cs1 [ritonavir]; experiment: as above

| Test System | fold change of IC50 against reference virus (delavirdine) | fold change of IC50 against reference virus (nelfinavir) | fold change of IC50 against reference virus (atazanavir) | fold change of IC50 against reference virus (lopinavir) | fold change of IC50 against reference virus (saquinavir) | fold change of IC50 against reference virus (indinavir) | fold change of IC50 against reference virus (ritonavir) |
| --- | --- | --- | --- | --- | --- | --- | --- |
| HIV-1 isolate 32 (reverse transcriptase changes: K64R K103N I135T Y181C G196E E204D, study 84) | 62 | – | – | – | – | – | – |
| HIV-1 isolate 89 (reverse transcriptase changes: S68G K103N K122E I135T V179A Y181C, study 84) | 100 | – | – | – | – | – | – |
| HIV-1 isolate 150 (reverse transcriptase changes: V106A K122E F214L A272P K277R A376T A400T D460N S468T H483Y K512Q S519N, study 11) | 25 | – | – | – | – | – | – |
| HIV-1 isolate 164 (reverse transcriptase changes: K103N D121Y K122E Y181C G196E R211G V245K, study 84) | 140 | – | – | – | – | – | – |
| HIV-1 isolate 255 (reverse transcriptase changes: S68G K122E I135T V179A, study 84) | 1 | – | – | – | – | – | – |
| HIV-1 isolate 404 (reverse transcriptase changes: K64R K103N I135T Y181C G196E E204D, study 84) | 62 | – | – | – | – | – | – |
| HIV-1 isolate 434 (reverse transcriptase changes: V90I K103N K122E I142V Y181C R211K, study 84) | 150 | – | – | – | – | – | – |
| HIV-1 isolate 444 (reverse transcriptase changes: K64R I135T G196E E204D, study 84) | 1 | – | – | – | – | – | – |
| HIV-1 isolate 524 (reverse transcriptase changes: R83K K103N S162C R211G, study 84) | 110 | – | – | – | – | – | – |
| HIV-1 isolate 607 (reverse transcriptase changes: K64R K103N K122E I178M, study 84) | 29 | – | – | – | – | – | – |
| HIV-1 isolate 817 (reverse transcriptase changes: V106A K122E F214L P225H A272P K277R A376T A400T D460N S468T H483Y K512Q S519N, study 11) | 4 | – | – | – | – | – | – |
| HIV-1 isolate 1021 (reverse transcriptase changes: K103N I178L G196E, study 84) | 31 | – | – | – | – | – | – |
| HIV-1 isolate 1045 (reverse transcriptase changes: K103N D121Y K122E Y181C G196E R211G V245K, study 84) | ≥ 250 | – | – | – | – | – | – |
| HIV-1 isolate 1209 (protease changes: K20R M36I R41K I54V D60E I62V L63P A71V V82A I93L, study 21) | – | 7.2 | 2.3 | 6.3 | 1.6 | 5.3 | 23 |
| HIV-1 isolate 1212 (protease changes: N37T L63P, study 15) | – | 1.9 | 1.5 | 1.3 | 1 | 1.2 | 1.7 |
| HIV-1 isolate 1241 (protease changes: L63P, study 138) | – | 1 | 0.7 | 0.6 | 0.8 | 0.8 | 0.7 |
| HIV-1 isolate 1246 (protease changes: I13V I15V Q18I L19I D30N L33F D60E L63P V77I N88D L90M I93L, study 83) | – | 98 | 4.8 | 2.6 | 16 | 3.5 | 8.4 |
| HIV-1 isolate 1251 (protease changes: L10I L24I M46I F53L L63P A71V V77I V82T I84V, study 138) | – | 6.1 | 17.2 | 10.9 | 20.9 | 8.4 | 61.5 |
| HIV-1 isolate 1264 (protease changes: L63P H69Q V77I, study 15) | – | 0.3 | 0.3 | 0.2 | 0.3 | 0.3 | 0.3 |
| HIV-1 isolate 1269 (protease changes: I54M Q58E L63P, study 78) | – | 4.7 | 3.4 | 2.9 | 1.9 | 2 | 4.4 |
| HIV-1 isolate 1290 (protease changes: K14R I15V R41K L63P, study 64) | – | 1.1 | 0.9 | 0.8 | 0.7 | 0.9 | 1 |
| HIV-1 isolate 1326 (protease changes: I62V H69Q A71T V77I, study 15) | – | 1.4 | 1.2 | 1 | 0.8 | 1 | 0.8 |
| HIV-1 isolate 1348 (protease changes: L10I I13V E35D M36I R41K I50V L63P A71V N88S, study 117) | – | 14.8 | 4.9 | 5.6 | 5.5 | 3.8 | 9.2 |
| HIV-1 isolate 1357 (protease changes: L10I K20R V32I E35D M36I K43T M46I I47V F53L L63P A71T I72V V77L V82C L90M I93L, study 64) | – | 25 | 24 | 78 | 15 | 15 | 116 |
